The series relates to HeLa cells. Nature of the series: Cytotoxicity in HeLa cells (ATP content, ATPlite kit); SI calculated as CC50/EC50. It is filed as cell-based. The note with it: SI is calculated as CC50/EC50, three days.

We go through nine compounds from US9617289B2, “RSV antiviral compounds” (JANSSEN R&D IRELAND, priority 2012, dated 2017).

No dose or concentration is given here for some results. A value given as a limit tells only on which side of the number the result lay.

For the compound `CC(C)(O)C(=O)N1CCC2(CC1)C(=O)N(Cc1cc3cc(Cl)ccc3n1CCCCO)c1cnccc12` [Compound 155, 1′-{[5-Chloro-1-(4-hydroxybutyl)-1H-indol-2-yl]methyl}-1 - (2-hydroxy-2-methylpropanoyl)spiro[piperidine-4,3′-pyrrolo[2,3-c]pyridin]-2′(1′H)-one], the SI_TOX-HELA_wt is recorded as 291340. Turning to `CC(C)(O)C(=O)N1CC2(C1)C(=O)N(Cc1nc3cc(Cl)ccc3n1CCCS(C)(=O)=O)c1ccccc12` [Compound 6, 1′-({5-chloro-1-[3-(methylsulfonyl)propyl]-1H-benzimidazol-2-yl}methyl)-1-(2-hydroxy-2-methylpropanoyl)spiro[azetidine-3,3′-indol]-2′(1′H)-one], the SI is above 220491. On to `CC(C)(C)OC(=O)N1CC2(C1)C(=O)N(Cc1cc3cc(Cl)ccc3n1CCCC#N)c1ccccc12` [Compound 58, tert-butyl 1′-{[5-chloro-1-(3-cyanopropyl)-1H-indol-2-yl]-methyl}-2′-oxo-1′,2′-dihydro-1H-spiro[azetidine-3,3′-indole]-1-carboxylate], for which the SI is listed as above 386305. Take `CC(C)COC(=O)N1CC2(C1)C(=O)N(Cc1nc3cc(Cl)ccc3n1CCCC(F)(F)F)c1ccccc12` [Compound 45, isobutyl 1′-((5-chloro-1-(4,4,4-trifluorobutyl)-1H-benzo[d]-imidazol-2-yl)methyl)-2′-oxospiro[azetidine-3,3′-indoline]-1-carboxylate]: the SI is above 227520. Regarding `N#CCCCn1c(CN2C(=O)C3(CN(C(=O)[C@H](O)CO)C3)c3ccccc32)cc2cc(Cl)ccc21` [Compound 131, (R)-4-(5-chloro-2-((1-(2,3-dihydroxypropanoyl)-2′-oxospiro[azetidine-3,3′-indolin]-1′-yl)methyl)-1H-indol-1-yl)butanenitrile], the SI_TOX-HELA_wt is reported as 107026.

For `CC(C)(C)OC(=O)N1CCC2(CC1)C(=O)N(Cc1nc3cc(Cl)ccc3n1CCCS(C)(=O)=O)c1ccc(Br)cc12` [Compound 23, tert-butyl 5-bromo-1-((5-chloro-1-(3-(methyl-sulfonyl)propyl)-1H-benzo[d]imidazol-2-yl)methyl)-2-oxospiro[indoline-3,4′-piperidine]-1′-carboxylate], the SI is 606. Regarding `CC(C)(C)OC(=O)N1CCC2(CC1)C(=O)N(Cc1cc3ccccc3n1CCCC(F)(F)F)c1cnccc12` [Compound 113, tert-Butyl 2′-oxo-1′-{[1-(4,4,4-trifluorobutyl)-1H-indol-2-yl]methyl}-1′,2′-dihydro-1H-spiro[piperidine-4,3′-pyrrolo[2,3-c]pyridine]-1-carboxylate], the SI_TOX-HELA_wt was above 1507.51. Take `CS(=O)(=O)CCCn1c(CN2C(=O)C3(CCN(S(=O)(=O)c4ccc(F)cc4)CC3)c3ccccc32)nc2cc(Cl)ccc21` [Compound 34, 1-({5-chloro-1-[3-(methylsulfonyl)propyl]-1H-benzimidazol-2-yl}methyl)-1′-[(4-fluorophenyl)-sulfonyl]spiro[indole-3,4′-piperidin]-2(1H)-one]: the SI is reported as above 79744.4. Consider `CC(=O)NS(=O)(=O)N1CC2(C1)C(=O)N(Cc1nc3cc(Cl)ccc3n1CCCC#N)c1ccccc12` [Compound 170, N-[(1′-{[5-Chloro-1-(3-cyanopropyl)-1H-benzimidazol-2-yl]methyl}-2′-oxo-1′,2′-dihydro-1H-spiro[azetidine-3,3′-indol]-1-yl)sulfonyl]acetamide], for which the SI_TOX-HELA_wt is recorded as above 370143.
